For at least one entry, the source does not settle the construct or the ends of the probe. Where a protein sequence is shown, tags need not be part of it. Whether high values mean tight binding is not given here for every scale.
Molecular target: T1, RcnR (Salmonella enterica serovar Typhimurium SL1344) (UniProt Q7CPV3)
T1 sequence (looked up, limits assumed): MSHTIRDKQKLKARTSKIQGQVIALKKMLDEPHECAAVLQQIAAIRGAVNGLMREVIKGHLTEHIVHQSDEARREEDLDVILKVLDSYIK
Assay: fluorescence anisotropy
Settings: 10 mM HEPES pH 7.0, 60 mM NaCl, 240 mM KCl, 5 mM EDTA (or 5 uM NiCl2/CoCl2), 25 C, 10 nM DNA, anaerobic except FrmRC35A, Kd per tetramer, recombinant protein, label: 5'-HEX on strand 1

**Q.** Which results are given for “TACTCCCCCCCAGTATAGAATACTACCCCCCAGTA (double strand) [rcnRAPro]”?
**A.** binding signal (fold weaker Kd vs apo) (50 uM formaldehyde, 5 mM EDTA): 2.5; binding signal (fold weaker Kd vs apo) (100 uM formaldehyde, EDTA): 5; Kd (Co(II)-RcnR, 5 uM CoCl2, printed as >=): > 15 µM; Kd (Ni(II)-RcnR, 5 uM NiCl2, printed as >=): > 5.9 µM

Source: PMC5016687, “The Effectors and Sensory Sites of Formaldehyde-responsive Regulator FrmR and Metal-sensing Variant” (The Journal of Biological Chemistry, 2016)
